Laboratory results taken from the supplement of paper PMC9931576.
Human monoclonal antibodies against the spike receptor-binding domain (heavy:light variable regions). IC50 against pseudoviruses bearing the spike of naturally observed variants; lower = stronger; >10 µg/ml means not reached at the top dose. No active / inactive call. The stated detection limit is 0.0005 µg/ml; values near or below 0.001 µg/ml lie at the floor of the assay.

B1: BD56-1093 (protein)
chain 1: QITLKESGPTLVKPTQTLTLTCTFSGFSLSTSGVGVGWIRQPPGKALEWLALIYWDDDKRYGPALKNRLTITKDTSKNQVVLTLTKMDPADTATYYCAHFEATTNPLNWFDPWGQGTLVTVSS
chain 2: QSVLTQSPSVSEAPRQRVTISCTGSTSNIGNNPVNWYQQLPGKAPKLLIYYDDMVPSGVSDRFSGSKSGTTASLAISGLQSEDEAEYYCAAWDDRLHGPVFGGGTKLTVL
B2: BD56-1038 (protein)
chain 1: QVQLVQSGAEVKKPGASVKVSCKASGYNFKGYAINWVRQAPGQRLEWLGWINAGYGNTRYSQKLQGRVTISTDTSASTAYMVLSDLRSEDTAVYYCAKDVAVGHNYFDFWGLGTLVTVSS
chain 2: DIQMTQSPSTLSASVGDRVTITCRASQSLSSWVAWYQQKPGKAPKFLIYKASSLESGVPSRFSGSGYGTEFTLTINNLQPDDFATYFCQQYNSYPLTFGQGTRLEIK
B3: BD56-1064 (protein)
chain 1: QVQLVESGGGVVQPGRSLRLSCVVSGFTFSRYGMHWVRQAPGKGLEWVAVILYDGSNKDYADSVKGRFTISRDNSKNTLYLQMNSLRTEDTAVYYCAKVVGTYCSGGNCYGATLDYWGQGTLVTVSS
chain 2: DIQMTQSPSSLSASVGDRVTITCQASQDITNYLNWYQQKPGKAPKLLIYDASNLETGVPSRFSGSGSGTDFTFTINSLQPEDIATYYCQQYHYLPITFGQGTRLDIK
B4: BD56-1097 (protein)
chain 1: QVQLVQSGAEVKKPGSSVTVSCEASGGTFGSYAISWVRQAPGQGLEWMGRVIPIFGISNHAQKFQDRVTITADKSTSTAYMELSSLRPEDTAVYFCARDGPEGPDYDYGGTSPYYYYMDVWGKGTTVTVSS
chain 2: QSVLTQPPSVSGTPGQRVTISCSGGSSNIGSNTVNWYQQLPGTAPKLLIYSNYQRPSGVPDRFSGSKSGASASLAISGLQSEDEADYYCSLWDDTLDGWVFGGGTKLTVL
B5: BD56-977 (protein)
chain 1: EVQLVESGGGLVQPGGSQRLSCAAAGFTFSRHWMHWIRQAPGKGLVWVARINSVGSIITYADSVKGRFTISRDNAKNTLHLQMNSLRAEDTAVYYCVRDATYYNLDYWGQGTLVTVSS
chain 2: NFMLTQPHSVSESPGKTVTISCTGSGGSIASNYVQWYQQRPGSGPTTVIYEDNQRPSGVPDRFSGSIDSSSNSASLTISGLKTEDEADYYCQSFDGDNQGGVFGGGTKLTVL
B6: BD56-1057 (protein)
chain 1: QVQLVQSGTEVKKPGASVKISCKASGYSFNSHYMHWVRQAPGQGLEWMGIINPSAGSTTYAQKLQGRVTMTSDTSTTTVYMELRSLRSEDTAVYFCATDIAVVPATMSLEFWGPGTLVTVSS
chain 2: DIQLTQSPSSLSASVGDRVTITCRASQGIGNYLAWYQQKPGKAPKLLIYATSTLQSGVPSRFSGSGSGTDFTLTISSLQPEDFATYYCQQLNSYPPYTFGQGTKLEIK

What follows are binders tested against SARS-CoV-2 Omicron BA.1 spike pseudovirus (assay: pseudovirus neutralization IC50; higher = weaker neutralization).
Protocol: (§1)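 Single-round VSV luciferase pseudovirus mixed with antibody dilutions for 1 h and put on Huh-7 cells for about a day; IC50 from the dose curve.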

| Binder | pseudovirus neutralization IC50 |
| --- | --- |
| B1 | > 10 mg/L |
| B2 | > 10 mg/L |
| B3 | 3.53 mg/L |
| B4 | > 10 mg/L |
| B5 | 3.01 mg/L |
| B6 | > 10 mg/L |

The binders below were run against SARS-CoV-2 Omicron BA.2 spike pseudovirus in the same assay as above.
Protocol: as §1

| Binder | pseudovirus neutralization IC50 |
| --- | --- |
| B1 | > 10 mg/L |
| B2 | > 10 mg/L |
| B3 | 4.26 mg/L |
| B4 | > 10 mg/L |
| B5 | > 10 mg/L |
| B6 | > 10 mg/L |

These binders were tested against SARS-CoV-2 Omicron BA.2.75 spike pseudovirus in the same assay as above.
Protocol: as §1

| Binder | pseudovirus neutralization IC50 |
| --- | --- |
| B1 | > 10 mg/L |
| B2 | > 10 mg/L |
| B3 | 3.14 mg/L |
| B4 | > 10 mg/L |
| B5 | > 10 mg/L |
| B6 | > 10 mg/L |

These binders were tested against SARS-CoV-2 Omicron BA.5 spike pseudovirus in the same assay as above.
Protocol: as §1

| Binder | pseudovirus neutralization IC50 |
| --- | --- |
| B1 | > 10 mg/L |
| B2 | > 10 mg/L |
| B3 | 1.86 mg/L |
| B4 | > 10 mg/L |
| B5 | > 10 mg/L |
| B6 | > 10 mg/L |

What follows are binders tested against SARS-CoV-2 Omicron BQ.1.1 spike pseudovirus in the same assay as above.
Protocol: as §1

| Binder | pseudovirus neutralization IC50 |
| --- | --- |
| B1 | > 10 mg/L |
| B2 | > 10 mg/L |
| B3 | 2.57 mg/L |
| B4 | > 10 mg/L |
| B5 | > 10 mg/L |
| B6 | > 10 mg/L |

The binders below were run against SARS-CoV-2 Omicron XBB spike pseudovirus in the same assay as above.
Protocol: as §1

| Binder | pseudovirus neutralization IC50 |
| --- | --- |
| B1 | > 10 mg/L |
| B2 | > 10 mg/L |
| B3 | 2.39 mg/L |
| B4 | > 10 mg/L |
| B5 | > 10 mg/L |
| B6 | > 10 mg/L |

The binders below were run against SARS-CoV-2 early D614G spike pseudovirus in the same assay as above.
Protocol: as §1

| Binder | pseudovirus neutralization IC50 |
| --- | --- |
| B1 | > 10 mg/L |
| B2 | > 10 mg/L |
| B3 | > 10 mg/L |
| B4 | > 10 mg/L |
| B5 | 0.96 mg/L |
| B6 | > 10 mg/L |
